Results on 11 compounds are retold here after ChEMBL document CHEMBL3045492, “Regioselective synthesis of novel 3-alkoxy (phenyl) thiophosphorylamido-2-(per-O-acetylglycosyl-1'-imino)thiazolidine-4-one derivatives from O-alkyl N4-glycosyl(thiosemicarbazido)phosphonothioates” (2009).

Each structure is given as a SMILES string.

In assay [1] the test system is Botryosphaeria berengeriana. The experiment in a line: Growth inhibition of Botryosphaeria berengeriana at 50 ppm relative to control.
A further assay concerns Phomopsis asparagi. The assay can be described thus: Growth inhibition of Phomopsis asparagi at 50 ppm relative to control.

On to `CCOP(=S)(NN1C(=O)CS/C1=N/[C@@H]1OC[C@@H](OC(C)=O)[C@H](OC(C)=O)[C@H]1OC(C)=O)c1ccccc1` (some centres not stated), for which the growth inhibition (GI) (in assay [1]; with Phomopsis asparagi) was 40% each time.
With `CCOP(=S)(NN1C(=O)CS/C1=N/[C@@H]1OC[C@@H](OC(C)=O)[C@H](OC(C)=O)[C@H]1OC(C)=O)OCC`, the growth inhibition (GI) (in assay [1]; with Phomopsis asparagi) was 40% each time.
On to `COP(=S)(NN1C(=O)CS/C1=N/[C@@H]1O[C@H](COC(C)=O)[C@@H](OC(C)=O)[C@H](OC(C)=O)[C@H]1OC(C)=O)c1ccccc1` (some centres not stated), for which the growth inhibition (GI) (in assay [1]; in the assay on Phomopsis asparagi) was 40% throughout.
Regarding `CCOP(=S)(NN1C(=O)CS/C1=N/[C@@H]1O[C@H](COC(C)=O)[C@@H](OC(C)=O)[C@H](OC(C)=O)[C@H]1OC(C)=O)OCC`, the growth inhibition (GI) (in assay [1]; in the assay on Phomopsis asparagi) was 40% each time.
With `COP(=S)(NN1C(=O)CS/C1=N/[C@@H]1OC[C@@H](OC(C)=O)[C@H](OC(C)=O)[C@H]1OC(C)=O)c1ccccc1` (some centres not stated), the growth inhibition (GI) (in assay [1]; in the assay with Phomopsis asparagi) was 40% throughout.
In the case of `CCCOP(=S)(NN1C(=O)CS/C1=N/[C@@H]1O[C@H](COC(C)=O)[C@@H](OC(C)=O)[C@H](OC(C)=O)[C@H]1OC(C)=O)c1ccccc1` (some centres not stated), the growth inhibition (GI) (in assay [1]; in the assay on Phomopsis asparagi) was 40% throughout.
Take `CCOP(=S)(NN1C(=O)CS/C1=N\[C@@H]1O[C@H](COC(C)=O)[C@H](OC(C)=O)[C@H](OC(C)=O)[C@H]1OC(C)=O)OCC`: the growth inhibition (GI) (in assay [1]; in the assay with Phomopsis asparagi) was 40% throughout.
`COP(=S)(NN1C(=O)CS/C1=N/[C@@H]1OC[C@@H](OC(C)=O)[C@H](OC(C)=O)[C@H]1OC(C)=O)OC`: the growth inhibition (GI) (in assay [1]; in the assay on Phomopsis asparagi) was 40% throughout.
As to `COP(=S)(NN1C(=O)CS/C1=N\[C@@H]1O[C@H](COC(C)=O)[C@H](OC(C)=O)[C@H](OC(C)=O)[C@H]1OC(C)=O)c1ccccc1` (some centres not stated), the growth inhibition (GI) (in assay [1]; with Phomopsis asparagi) was 40% each time.
With `CCOP(=S)(NN1C(=O)CS/C1=N/[C@@H]1O[C@H](COC(C)=O)[C@@H](O[C@@H]2O[C@H](CC(C)=O)[C@H](OC(C)=O)[C@H](OC(C)=O)[C@H]2OC(C)=O)[C@H](OC(C)=O)[C@H]1OC(C)=O)OCC`, the growth inhibition (GI) (in assay [1]; in the assay on Phomopsis asparagi) was 40% in each case.
On to `CCOP(=S)(NN1C(=O)CS/C1=N/[C@@H]1O[C@H](COC(C)=O)[C@@H](O[C@H]2O[C@H](CC(C)=O)[C@@H](OC(C)=O)[C@H](OC(C)=O)[C@H]2OC(C)=O)[C@H](OC(C)=O)[C@H]1OC(C)=O)OCC`, for which the growth inhibition (GI) (in assay [1]; in the assay on Phomopsis asparagi) was 40% throughout.
